Data published in patent publication US9771361B2, “Inhibitors of influenza viruses replication” (priority 2013, dated 2017).

Test system: influenza A strains
Assay: MDCK Cell Protection Assay, panel of influenza strains
Type: cell-based, influenza A virus
Details: all strains including resistant ones

Question: `O=C(O)[C@H]1C2CCC(CC2)C1Nc1nc(-c2c[nH]c3ncc(F)cc23)ncc1F` (stereo partly shown) was tested. Which “effectiveness against strains resistant to amantadine and neuraminidase inhibitors” value did it give?
Answer: equally effective
